Anti-infective test results gathered from many reports (values: NIAID ChemDB through PubChem).

Common to all: tests in culture; agent: HIV-1

ECn is the concentration giving n% inhibition of infection, replication or growth. Blank or dashed fields: not listed here. Lines come from different laboratories, so protocols vary. a–b is a range or a potency band.

SMILES	method	changes	strain	conditions	cell line	measure	result
O=c1[nH]cnc2c1ncn2[C@H]1CC[C@@H](CO)O1	cytopathic effect / XTT	-	HXB2	-	MT-2	EC50	4.3 µM
CCCCCCc1ccsc1-c1cn([C@H]2C[C@H](O)[C@@H](CO)O2)c(=O)[nH]c1=O	RT activity	-	IIIB	-	H9	EC50	>10 µg/mL
COc1ccc(S(=O)(=O)N(CC(C)C)CC(O)C(NC(=O)c2cccc(N)c2C)Sc2ccccc2)cc1	cytopathic effect	-	BRU	-	MT-4	EC50	0.1–1 µM
Nc1nc(NC2CC2)c2ncn([C@H]3C=C[C@@H](CO)C3)c2n1	cytopathic effect / XTT	RT-K65R Q151M	Site-directed mutant	-	MT-2	EC50	>25 µM
COc1ccccc1N1CCN(CCCCN2C(=O)CCC(c3ccccc3)C2=O)CC1	MTT	-	-	-	MT-4	EC50	>100 µM
CCCc1cc(=O)oc2c3c(c4c(c12)OC(C)(C)C=C4)O[C@H](C)[C@@H](C)[C@@H]3O	XTT	-	SK1	-	CEM + CEM-SS	EC50	0.09 µM
CC(C)(C)[Si](C)(C)OC[C@H]1O[C@@H](n2cnc3c(N)ncnc32)[C@H](O[Si](C)(C)C(C)(C)C)C12OS(=O)(=O)C=C2N	syncytia	RT-E138K	IIIB	-	CEM	EC50	>8 µM
CC(C)(C)OC(=O)N[C@@H](Cc1ccccc1)[C@@H](O)C[C@@H](Cc1ccc(OCCO)cc1)C(=O)N[C@H]1c2ccccc2C[C@H]1O	p24	-	IIIB	-	H9	EC50	<0.05 µM
CNc1cccc(CN2C(=O)N(Cc3cccc(N)c3)[C@H](Cc3ccc4c(c3)OCCO4)[C@H](O)[C@@H](O)[C@H]2Cc2ccc3c(c2)OCCO3)c1	-	-	RF	-	MT-2	EC50	<0.027 µM
CC1(C)CC[C@]2(C(=O)O)CC[C@]3(C)C(=CC[C@@H]4[C@@]5(C)CC[C@H](O)C(C)(C)[C@@H]5CC[C@]43C)[C@@H]2C1	p24	-	Primary clinical isolate Rome	-	PBMC	EC50	22.7 µM
CC(C)Nc1cccnc1N1CCN(C(=O)c2cc3cc(NS(C)(=O)=O)ccc3[nH]2)CC1	cytopathic effect	RT-Y181C	NNRTI-resistant	-	CEM	EC50	0.93 µM
O=P(O)(O)COCCn1cnc2c(NC3CCCCC3)ncnc21	cytopathic effect / MTT	-	IIIB	-	CEM	EC50	>100 µg/mL
Cc1ccccc1CNC(=O)[C@H]1N(C[C@@H](O)C[C@@H](Cc2ccccc2)C(=O)N[C@H]2c3ccccc3OC[C@H]2O)CSC1(C)C	p24	-	-	-	MT-4	EC50	<0.25 µM
CCOCn1c(Cc2cc(C)cc(C)c2)c(CC)c(=O)[nH]c1=O	syncytia	-	IIIB	-	CEM	EC50	0.009 µM
C=C1C(=O)O[C@H]2/C=C(\C)C[C@@H]3C=C(CC/C=C(\C)CC[C@H]12)C(=O)O3	cytopathic effect / XTT	-	RF	-	CEM + CEM-SS	EC50	0.1 µg/mL
C/C=C/CSc1cc(NC(=S)c2ccsc2C)ccc1Cl	cytopathic effect / XTT	RT-L100I	Dihydrocostatolide-resistant (RT-L100I)	-	CEM + CEM-SS	EC50	1 µM
CCn1nc(Cc2ccccc2)cc1C1CCN(C[C@H]2CN([C@H](CC(C)C)C(=O)O)C[C@@H]2c2ccccc2)CC1	β-galactosidase	-	BaL	-	HeLa	EC50	<0.0037 µM
Cc1cn([C@@H]2O[C@H](CO[Si](C)(C)C(C)(C)C)C3(OS(=O)(=O)C=C3N)[C@H]2O[Si](C)(C)C(C)(C)C)c(=O)n(C)c1=O	cytopathic effect	RT-E138K	TSAO-m3T-resistant	-	CEM	EC50	>80 µM
O=C1CCC(c2ccccc2)C(=O)N1CCCN1CCN(c2ccccn2)CC1	MTT	-	-	-	MT-4	EC50	>100 µM
CC(C)(C)OC(=O)N[C@@H](Cc1ccccc1)[C@@H](O)C[C@@H](Cc1ccc(OCCN2CCOCC2)cc1)C(=O)N[C@H]1c2ccccc2C[C@H]1O	antigen	-	MN	-	MT-4	EC50	<0.025 µM
Cc1ccnc2c1NC(=O)c1cccnc1N2C1CC1	cytopathic effect / XTT	RT-A98G V108I	TIBO R82150-resistant (RT A98G V108I)	-	CEM + CEM-SS	EC50	0.6 µM
CCCCCCc1ccsc1-c1cn([C@@H]2C[C@H](O)[C@@H](CO)O2)c(=O)[nH]c1=O	RT activity	-	IIIB	-	H9	EC50	>10 µg/mL
CCCN(C(=O)OCc1ccccc1)C1CCN(CCC(CN(C)S(=O)(=O)c2ccccc2)c2ccccc2)CC1	-	-	BaL	-	MAGI + MAGI-CCR5	EC90	>0.3 µM
Nc1ncnc2c1ncn2CCOCP(=O)(O)O	syncytia	RT-E138K	IIIB	-	CEM	EC50	7 µM
Cc1cn([C@H]2C[C@H](N=[N+]=[N-])[C@@H](CO)O2)c(=O)[nH]c1=O	p24	-	IIIB	-	CEM	EC50	>0.3 µM
O=c1[nH]cnc2c1ncn2[C@H]1CC[C@@H](CO)O1	syncytia	RT-E138K	IIIB	-	CEM	EC50	5.3 µM
CCCN(C(=O)OCc1ccc([N+](=O)[O-])cc1)C1CCN(CC[C@H](CN(C)S(=O)(=O)c2ccccc2)c2ccccc2)CC1	-	-	YU-2 (M-tropic)	-	MAGI + MAGI-CCR5	EC50	<0.02 µM
CC(C)=CCN1Cc2cc(Cl)cc3[nH]c(=S)n(c23)C[C@@H]1C	syncytia	RT-E138K	IIIB	-	CEM	EC50	0.31 µM
CCNc1nc(N(C)C)nc2c1[nH]c[n+]2C[C@@H](C)OCP(=O)(O)O	cytopathic effect / MTT	-	IIIB	-	CEM	EC50	7 µg/mL
Cc1cc(S(N)(=O)=O)ccc1NC(=O)COc1ccccc1C(=O)c1cc(Cl)cc(C#N)c1	-	-	BaL	-	-	EC50	<0.002 µM
Cn1cccc1-c1cn([C@@H]2C[C@H](O)[C@@H](CO)O2)c(=O)nc1N	RT activity	-	IIIB	-	H9	EC50	>10 µg/mL
CC(C)[C@H](NC(=O)c1ccccn1)C(=O)N[C@@H](Cc1ccccc1)[C@H](O)[C@H](O)[C@H](Cc1ccccc1)NC(=O)[C@@H](NC(=O)c1ccccn1)C(C)C	p24	-	NL4-3	-	MT-4	EC50	2 µM
O=C1N(Cc2ccccc2)[C@H](Cc2ccc3ccccc3c2)[C@H](O)[C@@H](O)[C@@H](Cc2ccc3ccccc3c2)N1Cc1ccccc1	-	-	RF	-	MT-2	EC50	<3.2 µM
Cc1cn([C@@H]2O[C@H](CO[Si](C)(C)C(C)(C)C)C3(OS(=O)(=O)C=C3N)[C@H]2O[Si](C)(C)C(C)(C)C)c(=O)n(C)c1=O	syncytia	-	IIIB	-	CEM	EC50	0.05 µM
CC(=O)c1cccc(CN2C(=O)N(Cc3cccc(C(C)=O)c3)[C@H](Cc3ccc4c(c3)CCO4)[C@H](O)[C@@H](O)[C@H]2Cc2ccc3c(c2)CCO3)c1	-	-	RF	-	MT-2	EC50	<0.01 µM
Nc1nc(N)c2ncn(CCOCP(=O)(O)O)c2n1	cytopathic effect / MTT	-	IIIB	-	MT-4	EC50	2.67 µg/mL
Nc1nc(=O)n([C@H]2C[C@H](O)[C@@H](CO)O2)cc1-c1ccoc1	RT activity	-	IIIB	-	H9	EC50	>10 µg/mL
COc1cc(O)c2c(c1)C(=O)c1c(cc3c(c1O)-c1c(cc(C)c(C(=O)N[C@H](C)C(=O)O)c1O)[C@H](O[C@@H]1O[C@H](C)[C@H](O)[C@H](O)[C@H]1O)[C@H]3O)C2=O	antigen	-	IIIB	-	MT-4	EC50	>30 µg/mL
O=C1N(Cc2ccc(O)cc2)[C@H](Cc2ccc3c(c2)OCCO3)[C@H](O)[C@@H](O)[C@@H](Cc2ccc3c(c2)OCCO3)N1Cc1ccc(O)cc1	-	-	RF	-	MT-2	EC50	<0.107 µM
CCN(C(=O)OCc1ccccc1)C1CCN(CC[C@](C)(CN(C)S(=O)(=O)c2ccccc2)c2ccccc2)CC1	p24	-	YU-2 (M-tropic)	-	PBMC	EC95	~0.5 µM
Nc1nc2c(ncn2[C@H]2CO[C@@H](CO)O2)c(=O)[nH]1	cytopathic effect / XTT	-	HXB2	-	MT-2	EC50	0.5 µM
CCn1nc(Cc2ccccc2)cc1C1CCN(C[C@H]2CN([C@](C)(C(=O)O)C(C)C)C[C@@H]2c2cccc(F)c2)CC1	β-galactosidase	-	BaL	-	HeLa	EC90	>0.3 µM
Cc1ccc(C(=O)OC[C@H]2O[C@@H](n3cc(-c4ccoc4)c(N)nc3=O)C[C@@H]2OC(=O)c2ccc(C)cc2)cc1	RT activity	-	IIIB	-	H9	EC50	<10 µg/mL
O=C1CCC(c2ccccc2)C(=O)N1CCCCN1CCN(c2ccc(F)cc2)CC1	MTT	-	-	-	MT-4	EC50	>54 µM
N#CCN1C(=O)N(Cc2cccc(F)c2)S(=O)(=O)c2cscc21	syncytia	-	NDK	-	MT-4	EC50	0.6 µM
CN1CCOc2ccc(C[C@@H]3[C@H](O)[C@@H](O)[C@@H](Cc4ccc5c(c4)N(C)CCO5)N(Cc4ccccc4)C(=O)N3Cc3ccccc3)cc21	-	-	RF	-	MT-2	EC50	<0.218 µM
C=CCN(C(=O)OCc1ccc([N+](=O)[O-])cc1)C1CCN(CC[C@](C)(CN(C)S(=O)(=O)c2ccccc2)c2ccccc2)CC1	p24	-	YU-2 (M-tropic)	-	PBMC	EC95	≤0.008 µM
CC[C@H]1C(=O)Nc2ccc(F)cc2N1C(=O)OC(C)C	cytopathic effect	-	IIIB WT	-	CEM	EC50	0.0021 µM
CCCc1cc(=O)oc2c3c(c4c(c12)OC(C)(C)C=C4)O[C@@H](C)[C@H](C)[C@@H]3O	XTT	RT-K101E	NL4-3 1 (RT K101E)	-	CEM + CEM-SS	EC50	2.9 µM
Cc1cn([C@H]2C[C@H](N=[N+]=[N-])[C@@H](CO)O2)c(=O)[nH]c1=O	p24 / RT activity	-	-	-	PBMC	EC50	0.0041 µM
CCCN(C)c1nc(N)nc2c1[nH]c[n+]2C[C@@H](C)OCP(=O)(O)O	cytopathic effect / MTT	-	IIIB	-	MT-4	EC50	57.4 ± 17.8 µg/mL
Nc1nc(NC2CC2)c2ncn([C@H]3C=C[C@@H](CO)C3)c2n1	p24	PR-L10L/I K20R M36I I54V A71I/V V82A I84I/V L90M	Clinical isolate	-	PBMC	EC50	0.91 µM
COc1cc(O)c2c(c1)C(=O)c1c(cc3c(c1O)-c1c(cc(C)c(C(=O)N[C@H](C)C(=O)O)c1O)[C@H](O[C@@H]1O[C@H](C)[C@H](O)[C@H](O[C@@H]4OC[C@@H](O)[C@H](O)[C@H]4O)[C@H]1O)[C@H]3O)C2=O	antigen	-	IIIB	-	MT-4	EC50	<10 µg/mL
O=C1Nc2ccc(Cl)cc2[C@@](C#CC2CC2)(C(F)(F)F)O1	-	-	LAI	pseudotyped	-	EC50	0.00038 µM
CC(C)c1nc(CN(C)C(=O)N[C@H](C(=O)N[C@@H](Cc2ccccc2)C[C@H](O)[C@H](Cc2ccccc2)NC(=O)OCc2cncs2)C(C)C)cs1	p24	-	NL4-3	-	MT-4	EC90	0.05 µM
CN1C(=O)N(Cc2ccccc2)S(=O)(=O)c2cscc21	syncytia	-	HE	-	MT-4	EC50	106 µM
Cc1cn([C@H]2C=C[C@@H](CO)O2)c(=O)[nH]c1=O	cytopathic effect / XTT	-	LAI	-	MT-2	EC50	5.3 µM
CCCN(C(=O)OCc1ccc([N+](=O)[O-])cc1)C1CCN(CC[C@](CO)(CN(C)S(=O)(=O)c2ccccc2)c2ccccc2)CC1	p24	-	YU-2 (M-tropic)	-	PBMC	EC50	<0.1 µM
COC(=O)[C@@H](C)NC(=O)c1c(C)cc2c(c1O)-c1c(cc3c(c1O)C(=O)c1cc(OC)cc(O)c1C3=O)[C@H](O)[C@H]2O[C@@H]1O[C@H](CO)[C@H](N)[C@H](O)[C@H]1O	syncytia	-	IIIB	-	MOLT-4	EC50	<30 µg/mL
CCN1C(=O)N(Cc2ccccc2)S(=O)(=O)c2cscc21	syncytia	RT-V106A	-	-	CEM	EC50	>310.2 µM
NCC(=O)Nc1ccc(Cl)cc1C(=O)c1ccc[nH]1	cytopathic effect / MTT	-	IIIB	-	MOLT-4	EC50	0.62 µg/mL
CC(C)(C)OC(=O)N[C@@H](Cc1ccc(O)cc1)[C@@H](O)C[C@@H](Cc1ccccc1)C(=O)N[C@H]1c2ccccc2C[C@H]1O	antigen	-	IIIB	-	H9	EC50	<0.05 µM
C#CCN1C(=O)N(Cc2ccccc2)S(=O)(=O)c2cscc21	syncytia	-	IIIB	-	MT-4	EC50	0.2 µM
CCCN(C(=O)OCc1ccccc1)C1CCN(CC[C@](C)(CN(C)S(=O)(=O)c2ccccc2)c2ccccc2)CC1	p24	-	YU-2 (M-tropic)	-	PBMC	EC50	<0.06 µM
O=C1CCC(c2ccccc2)C(=O)N1CCCCN1CCN(c2ccccc2)CC1	MTT	-	-	-	MT-4	EC50	>74 µM
Nc1nc(=O)n([C@H]2C[C@H](O)[C@@H](CO)O2)cc1-c1cccnc1	RT activity	-	IIIB	-	H9	EC50	>10 µg/mL
O=C1N(Cc2ccccc2)[C@H](Cc2ccc3c(c2)OCO3)[C@H](O)[C@@H](O)[C@@H](Cc2ccc3c(c2)OCO3)N1Cc1ccccc1	-	-	RF	-	MT-2	EC50	<0.504 µM
Fc1cccc(F)c1C1SCc2nc3ccccc3n21	XTT	-	IIIB	-	CEM + CEM-SS	EC50	2.5 µM
COc1cc(O)c2c(c1)C(=O)c1c(cc3c(c1O)-c1c(cc(C)c(C(=O)N[C@H](C)C(=O)O)c1O)[C@H](O[C@@H]1O[C@H](C)[C@H](N)[C@H](O[C@@H]4OC[C@@H](O)[C@H](O)[C@@H]4O)[C@H]1O)[C@H]3O)C2=O	syncytia	-	IIIB	-	MOLT-4	EC50	<10 µg/mL
Nc1cccc(CN2C(=O)N(Cc3cccc(N)c3)[C@H](Cc3ccccc3)[C@H](O)[C@@H](O)[C@H]2Cc2ccccc2)c1	-	-	RF	-	MT-2	EC90	0.15 µM
Cc1cn([C@H]2C[C@H](N=[N+]=[N-])[C@@H](CO)O2)c(=O)[nH]c1=O	XTT	RT-L100I	Oxathiin carboxanilide-resistant RT L100I	-	CEM + CEM-SS	EC50	0.04 µM
Nc1nc(=O)n([C@@H]2C[C@H](O)[C@@H](CO)O2)cc1-c1nccs1	RT activity	-	IIIB	-	H9	EC50	>10 µg/mL